Anti-infective test results gathered from many reports (values: NIAID ChemDB through PubChem).

All rows: growth or infection tests; organism: Streptococcus pneumoniae

Conditions beyond the fields shown may differ between rows. MIC50, MIC90 and the like: level of inhibition, or share of isolates inhibited.

O=C(O)NC[C@H]1CC(c2ccc(N3CCN(C(=O)CO)CC3)c(F)c2)=NO1 ; endpoint: MIC ; strain: UC9912 ; value: 1 µg/mL
CC[C@H]1OC(=O)[C@H](C)C(=O)[C@H](C)[C@@H](O[C@@H]2O[C@H](C)C[C@H](N(C)C)[C@H]2O)[C@@]2(C)C[C@@H](C)C(=NC(C)=O)[C@H](C)C(OC/C(=C\C=C\c3cccnc3)CO2)[C@]1(C)O ; endpoint: MIC ; strain: 700906 (erythromycin-resistant-ERM) ; value: 0.25 µg/mL
O=C(CC(=O)Nc1cccc(C(F)(F)F)c1)Nc1cccc(C(F)(F)F)c1 ; endpoint: MIC ; strain: STP6301 ; value: >300 µM
CC[C@H]1OC(=O)[C@H](C)C(=O)[C@H](C)[C@@H](O[C@@H]2O[C@H](C)C[C@H](N(C)C)[C@H]2O)[C@@]2(C)C[C@@H](C)C(=NC(C)=O)[C@H](C)C(OC/C(=C\C=C\c3ccccc3)CO2)[C@]1(C)O ; endpoint: MIC ; strain: 49619 (erythromycin-susceptible) ; value: <0.06 µg/mL
CC[C@H]1OC(=O)[C@H](C)C(=O)[C@H](C)[C@@H](O[C@@H]2O[C@H](C)C[C@H](N(C)C)[C@H]2O)[C@](C)(OC)C[C@@H](C)C(=O)[C@H](C)[C@H]2N(CCCCn3cnc(-c4cccnc4)c3)C(=O)O[C@]12C ; endpoint: MIC90 ; strain: 595 strains ; value: ≤0.06 µg/mL
CC[C@H]1OC(=O)[C@H](C)C(=O)[C@H](C)[C@@H](O[C@@H]2O[C@H](C)C[C@H](N(C)C)[C@H]2O)[C@](C)(OC)C[C@@H](C)C(=O)[C@H](C)[C@H]2N(CCCCn3cnc(-c4cccnc4)c3)C(=O)O[C@]12C ; endpoint: MIC ; strain: 49619 (erythromycin-susceptible) ; value: 0.015 µg/mL
CO/N=C1\CN(c2nc3c(cc2F)c(=O)c(C(=O)O)cn3C2CC2)CC1CN ; endpoint: MIC90 ; strain: 94 isolates ciprofloxacin-susceptible ; value: 0.031 µg/mL
CC[C@H]1OC(=O)[C@H](C)C(=O)[C@H](C)[C@@H](O[C@@H]2O[C@H](C)C[C@H](N(C)C)[C@H]2O)[C@@]2(C)C[C@@H](C)C(=NC(C)=O)[C@H](C)[C@@H](OC/C(=N\OCc3ccc(C(N)=O)cc3)CO2)[C@]1(C)O ; endpoint: MIC ; strain: 7701 (erythromycin-resistant-MEF) ; value: 0.25 µg/mL
CN1CCN(c2cc3c(cc2F)c(=O)c(C(=O)O)cn3C2CC2)CC1 ; endpoint: MIC ; strain: R6-G8 ; value: 1 µg/mL
CC[C@H]1OC(=O)[C@H](C)C(=O)[C@H](C)[C@@H](O[C@@H]2O[C@H](C)C[C@H](N(C)C)[C@H]2O)[C@](C)(OC)C[C@@H](C)C2=NCCN3C(=O)O[C@@]1(C)[C@H]3[C@H]2C ; endpoint: MIC ; strain: ATCC 6303 ; value: 0.06 µg/mL
CN1CCN(c2ccc3c(=O)c(C(=O)O)cn(C4CC4)c3c2)CC1 ; endpoint: MIC ; strain: R6 ; value: 32 µg/mL
CC(=O)NC[C@H]1CN(c2ccc3c(c2)OCc2nccn2-3)C(=O)O1 ; endpoint: MIC ; strain: 13 ; value: 0.125 µg/mL
CC[C@H]1OC(=O)[C@H](C)C(=O)[C@H](C)[C@@H](O[C@@H]2O[C@H](C)C[C@H](N(C)C)[C@H]2O)[C@@]2(C)C[C@@H](C)C(=NC(C)=O)[C@H](C)C(OC/C(=C\C#Cc3ccc(N)nc3)CO2)[C@]1(C)O ; endpoint: MIC ; strain: 49619 (erythromycin-susceptible) ; value: <0.06 µg/mL
CC(=O)NC[C@H]1CN(c2ccc(-c3cnn(Cc4ccccc4)c3)c(F)c2)C(=O)O1 ; endpoint: MIC ; strain: UC9912 ; value: 2 µg/mL
COc1c(N2C[C@@H]3CCCN[C@@H]3C2)ccc2c(=O)c(C(=O)O)cn(C3CC3)c12 ; endpoint: MIC ; strain: R6 ; value: 0.5 µg/mL
CC[C@H]1OC(=O)[C@H](C)C(=O)[C@H](C)[C@@H](O[C@@H]2O[C@H](C)C[C@H](N(C)C)[C@H]2O)[C@@]2(C)C[C@@H](C)C(=NC(C)=O)[C@H](C)[C@@H](OC/C(=N\OCCc3ccccc3)CO2)[C@]1(C)O ; endpoint: MIC ; strain: 700906 (erythromycin-resistant-ERM) ; value: 4 µg/mL
CC[C@H]1OC(=O)[C@H](C)C(=O)[C@H](C)[C@@H](O[C@@H]2O[C@H](C)C[C@H](N(C)C)[C@H]2O)[C@@]2(C)C[C@@H](C)C(=NC(C)=O)[C@H](C)C(OC/C=C/CO2)[C@]1(C)O ; endpoint: MIC ; strain: 7701 (erythromycin-resistant-MEF) ; value: 0.5 µg/mL
CC[C@H]1OC(=O)[C@H](C)C(=O)[C@H](C)[C@@H](O[C@@H]2O[C@H](C)C[C@H](N(C)C)[C@H]2O)[C@@]2(C)C[C@@H](C)C(=NC(C)=O)[C@H](C)[C@@H](OC/C(=N\Oc3ccccc3)CO2)[C@]1(C)O ; endpoint: MIC ; strain: 49619 (erythromycin-susceptible) ; value: <0.06 µg/mL
O=C(Nc1ccc(C(F)(F)F)cc1)Nc1ccc(C(F)(F)F)cc1 ; endpoint: MIC ; strain: STP51 (penicillin-resistant) ; value: 38 µM
COc1c(N2C[C@@H]3CCCN[C@@H]3C2)c(F)cc2c(=O)c(C(=O)O)cn(C3CC3)c12 ; endpoint: MIC90 ; strain: 2451 isolates (penicillin-susceptible) ; value: 0.22 µg/mL
O=C(NNC(=O)Nc1cc(C(F)(F)F)cc(C(F)(F)F)c1)Nc1cc(C(F)(F)F)cc(C(F)(F)F)c1 ; endpoint: MIC ; strain: STP51 (penicillin-resistant) ; value: >300 µM
COc1ccc(-c2ccc(N3CC(CNC(C)=O)CC3=O)cc2)ccc1=O ; endpoint: MIC ; strain: UC9912 ; value: >64 µg/mL
O=C(CCC(=O)Nc1cc(C(F)(F)F)cc(C(F)(F)F)c1)Nc1cc(C(F)(F)F)cc(C(F)(F)F)c1 ; endpoint: MIC ; strain: STP6301 ; value: >300 µM
CC[C@H]1OC(=O)[C@H](C)C(=O)[C@H](C)[C@@H](O[C@@H]2O[C@H](C)C[C@H](N(C)C)[C@H]2O)[C@@]2(C)C[C@@H](C)C(=NC(C)=O)[C@H](C)[C@@H](OC/C(=N\OCc3ccc4nc(N)sc4c3)CO2)[C@]1(C)O ; endpoint: MIC ; strain: 7701 (erythromycin-resistant-MEF) ; value: <0.06 µg/mL
CO/N=C(/C(=O)N[C@@H]1C(=O)N2C(C(=O)O)=C(COC(N)=O)CS[C@H]12)c1ccco1 ; endpoint: MIC90 ; strain: 595 strains ; value: 0.5 µg/mL
CC(=O)NC[C@H]1CN(c2ccc(-c3cncs3)c(F)c2)C(=O)O1 ; endpoint: MIC ; strain: UC9912 ; value: ≤0.125 µg/mL
CC[C@H]1OC(=O)[C@H](C)C(=O)[C@H](C)[C@@H](O[C@@H]2O[C@H](C)C[C@H](N(C)C)[C@H]2O)[C@@]2(C)C[C@@H](C)C(=NC(C)=O)[C@H](C)C(OC/C(=C\C=C\c3ccc(OC)cc3)CO2)[C@]1(C)O ; endpoint: MIC ; strain: 7701 (erythromycin-resistant-MEF) ; value: 0.5 µg/mL
O=C(O)c1cn(C2CC2)c2cc(N3CCNCC3)ccc2c1=O ; endpoint: MIC ; strain: D-1687 ; value: 64 µg/mL
CCNC(=O)[C@@H](NC(=O)Cc1ccccc1)[C@@H]1N[C@@H](C(=O)NCCNC(=O)[C@@H]2N[C@@H]([C@H](NC(=O)Cc3ccccc3)C(=O)NCC)SC2(C)C)C(C)(C)S1 ; endpoint: MIC90 ; strain: 595 strains ; value: 0.125 µg/mL
O=C(O)NC[C@H]1CC(c2ccc(-n3cccc3)c(F)c2)=NO1 ; endpoint: MIC ; strain: UC9912 ; value: 0.5 µg/mL
CC(=O)NC[C@H]1CN(c2ccc(-c3ccn(C)n3)c(F)c2)C(=O)O1 ; endpoint: MIC ; strain: UC9912 ; value: 1 µg/mL
N#Cc1cnn(-c2ccc(C3=NO[C@@H](CNC(=O)O)C3)cc2F)c1 ; endpoint: MIC ; strain: UC9912 ; value: 0.5 µg/mL
O=C(NNc1ccccn1)Nc1cc(C(F)(F)F)cc(C(F)(F)F)c1 ; endpoint: MIC ; strain: STP51 (penicillin-resistant) ; value: >300 µM
CC(=O)NC[C@H]1CN(c2ccc(-c3cc(C#N)cs3)c(F)c2)C(=O)O1 ; endpoint: MIC ; strain: UC9912 ; value: ≤0.5 µg/mL
O=C(Nc1cccc(C2=NCCN2)c1)Nc1cccc(C2=NCCN2)c1 ; endpoint: MIC ; strain: STP51 (penicillin-resistant) ; value: 38 µM
NC1CCN(c2ccc3c(=O)c(C(=O)O)cn(C4CC4)c3c2Cl)C1 ; endpoint: MIC ; strain: R6-C11 ; value: 0.5 µg/mL
CC(=O)NC[C@H]1CN(c2ccc(-c3cnn(C(C)=O)c3)c(F)c2)C(=O)O1 ; endpoint: MIC ; strain: UC9912 ; value: 0.5 µg/mL
O=C(CC(=O)Nc1cc(C(F)(F)F)cc(C(F)(F)F)c1)Nc1cccc(C2=NCCN2)c1 ; endpoint: MIC ; strain: STP6301 ; value: 106 µM
CC[C@H]1OC(=O)[C@H](C)C(=O)[C@H](C)[C@@H](O[C@@H]2O[C@H](C)C[C@H](N(C)C)[C@H]2O)[C@@](C)(OC/C=C/c2cccc3cccnc23)C[C@@H](C)C(=O)[C@H](C)[C@H]2NC(=O)O[C@@]21C ; endpoint: MIC ; strain: ATCC 6303 ; value: 0.125 µg/mL

A second listing of 4 rows from above:

SMILES	endpoint	strain	value
CC[C@H]1OC(=O)[C@H](C)C(=O)[C@H](C)[C@@H](O[C@@H]2O[C@H](C)C[C@H](N(C)C)[C@H]2O)[C@@]2(C)C[C@@H](C)C(=NC(C)=O)[C@H](C)[C@@H](OC/C(=N\OCc3ccc(C(N)=O)cc3)CO2)[C@]1(C)O	MIC	7701 (erythromycin-resistant-MEF)	0.25 µg/mL
O=C(Nc1cccc(C2=NCCN2)c1)Nc1cccc(C2=NCCN2)c1	MIC	STP51 (penicillin-resistant)	38 µM
O=C(CCC(=O)Nc1cc(C(F)(F)F)cc(C(F)(F)F)c1)Nc1cc(C(F)(F)F)cc(C(F)(F)F)c1	MIC	STP6301	>300 µM
CC[C@H]1OC(=O)[C@H](C)C(=O)[C@H](C)[C@@H](O[C@@H]2O[C@H](C)C[C@H](N(C)C)[C@H]2O)[C@@]2(C)C[C@@H](C)C(=NC(C)=O)[C@H](C)C(OC/C(=C\C#Cc3ccc(N)nc3)CO2)[C@]1(C)O	MIC	49619 (erythromycin-susceptible)	<0.06 µg/mL